Results of unrelated studies side by side (data: NIAID ChemDB).

Shared fields: whole-cell or culture tests; organism: Mycobacterium tuberculosis

MIC bound: limit read from a one-dose screen. a–b is a range or a potency band. Conditions beyond the fields shown may differ between rows. A number after MIC or MFC names an inhibition level or a share of isolates. ECn: concentration that inhibits the pathogen or its effect by n%. Percent inhibition refers to the dose given; in toxicity tests it is the harm to the cells. An empty or dashed field is not shown.

| smiles | changes | tested at | method | strain or isolate | read-out | value |
|---|---|---|---|---|---|---|
| CCCCCCCCOc1cccc(NC(=O)OCCN2CCCCCC2)c1 |  |  |  | My 331/88 | MIC | 8 µM |
| COc1ccc(N=Nc2c(O)c3c(Cl)ccc(Cl)c3[nH]c2=O)c(C)c1 |  |  | resazurin | H37Rv | MIC | >6.25 µg/mL |
| CCCCCCCCOc1ccc(NC(=O)OCCN2CCOCC2)cc1 |  |  |  | My 331/88 | MIC | 16 µM |
| CO[C@H]1/C=C/O[C@@]2(C)Oc3c(C)c(O)c4c(O)c(c5c(c4c3C2=O)NC2(CCN(CC(C)C)CC2)N=5)=NC(=O)/C(C)=C\C=C\[C@H](C)[C@H](O)[C@@H](C)[C@@H](O)[C@@H](C)[C@H](OC(C)=O)[C@@H]1C |  |  |  | MDR-1 (MDR) | MIC | >1.6 µg/mL |
| c1ccc(-c2cc3cc4c(cc3[nH]2)Oc2ccccc2O4)cc1 |  | 12.5 µg/mL | BACTEC | H37Rv | inhibition | -3% |
| CC(=O)NC[C@H]1CN(c2ccc(N3CCOCC3)c(F)c2)C(=O)O1 | INH RIF EMB resistant |  | resazurin | Clinical isolate 19 RP | MIC | 0.25 µg/mL |
| Cc1cccc2c(O)c(N=Nc3cccc(Cl)c3)c(=O)[nH]c12 |  | 6.25 µg/mL | resazurin | H37Rv | inhibition | 39% |
| CO/C(C)=C1/NC(=O)[C@H]([C@@H](C)O)NC(=O)c2csc(n2)-c2cc(O)c(-c3nc(C(=O)NCCCN4CCOCC4)cs3)nc2-c2csc(n2)[C@@H]2COC(=O)c3c4c5c(cccc5n3O)COC(=O)[C@@H](O[C@H]3C[C@](C)(O)[C@H](N(C)C)[C@H](C)O3)[C@@H](OC4)[C@H](NC(=O)c3csc1n3)c1nc(cs1)C(=O)N2 |  |  | broth dilution | Clinical 12556 | MIC | ≤2.5 µM |
| CC[C@H]1OC(=O)[C@H](C)[C@@H](O[C@H]2C[C@@](C)(OC)[C@@H](O)[C@H](C)O2)[C@H](C)[C@@H](O[C@@H]2O[C@H](C)C[C@H](N(C)C)[C@H]2O)[C@](C)(OC)C[C@@H](C)C(=O)[C@H](C)[C@@H](O)[C@]1(C)O |  |  |  | H37Rv | Median MIC | 8 µg/mL |
| COc1ccc(CCc2cc(OC)c3ccccc3n2)cc1OC |  |  |  | MT6 | MIC | 19 µg/mL |
| CCCCCCCCCCCCCCCCCCNCCNC(C)CCc1ccccc1 |  |  |  |  | MIC | 50 µM |
| COC(=O)C(NC(=O)C(=O)NC(C(=O)OC)C(C)(C)S)C(C)(C)S |  | 6.25 µg/mL |  | H37Rv | inhibition | 4% |
| COc1cc(CCNCCNC[C@]2(C)CCC[C@]3(C)c4ccc(C(C)C)cc4CC[C@@H]23)ccc1O |  |  |  |  | MIC | 12.5 µM |
| Cc1c(C(=O)C/C(=N\NC(=O)CC#N)C(N)=O)[n+](=O)c2ccccc2n1[O-] |  |  | BACTEC | H37Rv | MIC | ≥12.5 µg/mL |
| NNC(=O)c1ccncc1 | Rifampicin- and isoniazid-resistant |  | broth dilution | Clinical isolate 8600 | MIC | >10 µM |
| Cc1ccc(Nc2nc(N)nc(N)c2N)cc1Cl.O=S(=O)(O)O |  | 12.5 µg/mL | BACTEC | H37Rv | inhibition | 2% |
| C[C@H]1COc2c(N3CCN(C)CC3)c(F)cc3c(=O)c(C(=O)O)cn1c23 |  |  |  | 4R | MIC | 0.5 µg/mL |
| NNC(=O)CNC(=O)Cc1ccccc1 |  |  | BACTEC | H37Rv | MIC bound | >12.5 µg/mL |
| CC1COc2c(N3CCN(C)CC3)c(F)cc3c(=O)c(C(=O)O)cn1c23 |  |  |  | ATCC 35830 | MIC | 0.25 µg/mL |
| CN1CCN=C1c1ccc(NC(=O)Nc2ccc(NC(=O)Nc3ccc(C4=NCCN4C)cc3)cc2)cc1.Cl.Cl |  |  | BACTEC | H37Rv | MIC bound | >128 µg/mL |
| NC1CCN(c2c(F)cc3c(=O)c(C(=O)O)cn(C4CC4)c3c2Cl)C1 |  |  |  | DRUG-SUS | MIC90 | 0.25 µg/mL |
| O=C(N/N=C/c1cccc2ccccc12)c1ccc(O)cc1 |  | 12.5 µg/mL | BACTEC | H37Rv | inhibition | 6% |
| CC1COc2c(N3CCN(C)CC3)c(F)cc3c(=O)c(C(=O)O)cn1c23 |  |  |  | H37Ra | Median MIC | 0.5 µg/mL |
| C=C(NC(=O)c1csc(-c2nc3c(cc2O)-c2nc(cs2)C(=O)N[C@@H]([C@@H](C)O)C(=O)N/C(=C(\C)OC)c2nc(cs2)C(=O)N[C@@H]2c4nc(cs4)C(=O)N[C@@H](COC(=O)c4c5c6c(cccc6n4O)COC(=O)[C@@H](O[C@H]4C[C@](C)(O)[C@H](N(C)C)[C@H](C)O4)[C@H]2OC5)c2nc-3cs2)n1)C(N)=O |  |  | broth dilution | Clinical isolate 12556 | MIC | ≤2.5 µM |
| CCOC(=O)Nc1cc(NC(C)CCCN(CC)CC)c2ncc(-c3ccc(C(F)(F)F)cc3)nc2n1 |  |  |  | H37Rv | EC50 | <12.5 µg/mL |
| Nc1ccc(C(=O)O)c(O)c1 |  |  |  | H37Rv | Mean MIC | 0.69 µg/mL |
| O=c1[nH]c2c([N+](=O)[O-])cccc2c(O)c1N=Nc1ccccc1[N+](=O)[O-] |  |  | resazurin | H37Rv | MIC | <6.25 µg/mL |
| CCCCCCCCCCN1C(=O)C=CC1=O |  |  |  | H37Ra | MIC | ≤20 µg/mL |
| CCOc1ccccc1NC(=O)OCCN(C)C |  |  |  | My 331/88 | MIC | 1000 µM |
| CC1CN(c2cc3c(cc2F)c(=O)c(C(=O)O)cn3-c2ccc(F)cc2F)CCN1 |  |  |  | ATCC35838 | MBC | 1 µg/mL |
| CC(C)=CCCC(C)C1=C(O)C(=O)C(C)=CC1=O |  |  | BACTEC | H37Rv | MIC | 16 µg/mL |
| CCCCCCCCCN1C(=O)CCC1=O |  |  |  | Clinical isolate (isoniazid-resistant) | MIC | ≤20 µg/mL |
| C[C@H]1C[C@H](N)CN1c1cc2c(cc1F)c(=O)c(C(=O)O)cn2-c1ccc(F)cc1F |  |  |  | MDR | MIC90 | >8 µg/mL |
| Cn1c(=O)c(N=Nc2ccc(Cl)c(Cl)c2)c(O)c2ccccc21 |  |  | resazurin | H37Rv | MIC | >6.25 µg/mL |
| Cc1cc(S(=O)(=O)Nc2n[nH]c(Nc3ccccc3)n2)c(S)cc1Cl |  |  | BACTEC | H37Rv | MIC bound | >12.5 µg/mL |
| CCCCCCCOc1ccc(NC(=O)OCCN2CCOCC2)cc1 |  |  |  | My 331/88 | MIC | 16 µM |
| CC(=O)NC[C@H]1CN(c2ccc(N3CCOCC3)c(F)c2)C(=O)O1 |  |  |  | 11S | MIC | 0.5 µg/mL |
| CO/C(C)=C1/NC(=O)[C@H]([C@@H](C)O)NC(=O)c2csc(n2)-c2cc(O)c(-c3nc(C(=O)NNC(=O)c4cc(-c5ccco5)[nH]n4)cs3)nc2-c2csc(n2)[C@@H]2COC(=O)c3c4c5c(cccc5n3O)COC(=O)[C@@H](O[C@H]3C[C@](C)(O)[C@H](N(C)C)[C@H](C)O3)[C@@H](OC4)[C@H](NC(=O)c3csc1n3)c1nc(cs1)C(=O)N2 |  |  | broth dilution | Clinical Isolate 913 | MIC | 10–100 µM |
| Cn1c(=O)c2nc(-c3ccccc3)c(-c3ccccc3)nc2n(C)c1=O |  | 12.5 µg/mL | BACTEC | H37Rv | inhibition | 0% |
| COc1ccc(CNCCNCCCc2ccccc2)cc1OC |  |  |  |  | MIC | 50 µM |
| C[C@@H]1CN(c2c(F)c(N)c3c(=O)c(C(=O)O)cn(C4CC4)c3c2F)C[C@H](C)N1 |  |  |  | ATCC 35827 | MIC | 0.06 µg/mL |
| CO[C@H]1/C=C/O[C@@]2(C)Oc3c(C)c(O)c4c(O)c(c5c(c4c3C2=O)NC2(CCN(CC(C)C)CC2)N=5)=NC(=O)/C(C)=C\C=C\[C@H](C)[C@H](O)[C@@H](C)[C@@H](O)[C@@H](C)[C@H](OC(C)=O)[C@@H]1C |  |  |  | H37Ra | Median MIC | ≤0.003 µg/mL |
| COc1ccc(CCC2CCc3ccccc3N2C)cc1OC |  |  |  | MT8 | MIC | >322 µg/mL |
| N[C@@H]1CONC1=O |  |  |  | H37Rv | Median MIC | 12.5 µg/mL |
| CCOC(=O)Nc1cc(N)c2c(n1)OCC(N=[N+]=[N-])=N2 |  |  |  | H37Rv | EC50 | >12.5 µg/mL |
| CCCCC(CC)CN1CN(CC(CC)CCCC)CC(C)(NCCNC(C)CC(C)C)C1 |  |  |  |  | MIC | 25 µM |
| Cc1ccc2c(O)c(N=Nc3ccccc3Cl)c(=O)[nH]c2c1 |  |  | resazurin | H37Rv | MIC | >6.25 µg/mL |
| CCOC(=O)Nc1cc(N(C)CC(O)c2ccccc2)c(N)c(N)n1 |  | 12.5 µg/mL |  | H37Rv | inhibition | 20% |
| O=C1OC(c2ccccc2)=N/C1=C\c1ccc2c(c1)OCO2 |  |  | BACTEC | H37Rv | MIC bound | >12.5 µg/mL |
| CCCCOc1ccc(NC(=O)OCCN(C)C)cc1 |  |  |  | My 331/88 | MIC | 125 µM |
| N#CCCN(c1ccc(/C=C2\N=C(c3ccc(Cl)cc3)OC2=O)cc1)S(=O)(=O)c1ccccc1 |  |  | BACTEC | H37Rv | MIC bound | >12.5 µg/mL |
| CCOC(=O)Nc1cc2c(c(N)n1)N=C(c1ccc(Cl)cc1)CO2 |  |  |  | H37Rv | EC50 | >12.5 µg/mL |
| CO[C@H]1/C=C/O[C@@]2(C)Oc3c(C)c(O)c4c(O)c(c(/C=N/N5CCN(C)CC5)c(O)c4c3C2=O)NC(=O)/C(C)=C\C=C\[C@H](C)[C@H](O)[C@@H](C)[C@@H](O)[C@@H](C)[C@H](OC(C)=O)[C@@H]1C |  |  |  | 91196 | MIC | ≥2 µg/mL |
| CCOC(=O)n1c(=O)nc2c3c(ncn21)Oc1c(c(-c2ccccc2)nn1-c1ccccc1)C3c1ccc(Cl)cc1 |  | 6.25 µg/mL | resazurin | H37Rv | inhibition | 100% |
| Cc1ccc(N=Nc2c(O)c3c(Cl)ccc(Cl)c3[nH]c2=O)cc1 |  |  | resazurin | H37Rv | MIC | >6.25 µg/mL |
| CCCCCCCCCN1C(=O)CC(NCCCCCCCC)C1=O |  |  |  | H37Ra | MIC | ≤20 µg/mL |
| CC(CCc1nc(C#N)c(N)o1)[C@H]1CC[C@H]2[C@@H]3CCC4C[C@@H](O)CC[C@]4(C)[C@H]3C[C@@H](O)[C@]12C |  | 6.25 µg/mL | resazurin | H37Rv | inhibition | 44% |
| NC[C@H]1O[C@H](O[C@H]2[C@H](O)[C@@H](O[C@H]3O[C@H](CO)[C@@H](O)[C@H](N)[C@H]3O)[C@H](N)C[C@@H]2N)[C@H](N)C[C@@H]1O |  |  |  | H37Rv | Mean MIC | 10 µg/mL |
| NC1=NN(c2ccccc2)C(=O)C1/C(=N/NC(=O)c1cc2ccccc2cc1O)C(=O)Nc1nc([N+](=O)[O-])cs1 |  | 6.25 µg/mL | resazurin | H37Rv | inhibition | 0% |
| CO[C@H]1/C=C/O[C@@]2(C)Oc3c(C)c(O)c4c(=O)c(c5oc6cc(N7CCN(CC(C)C)CC7)cc(=O)c6nc5c4c3=C2O)NC(=O)/C(C)=C\C=C\[C@H](C)[C@H](O)[C@@H](C)[C@@H](O)[C@@H](C)[C@H](OC(C)=O)[C@@H]1C |  |  |  | TN798 | MIC | 16 µg/mL |
| CC(=O)OCc1cc(=O)n(C)c2c3c4c(cc12)c(C)cc(=O)n4CO3 |  |  |  | INH-r | MIC | 3.2 µg/mL |
| CC[C@H]1OC(=O)[C@H](C)[C@@H](O[C@H]2C[C@@](C)(OC)[C@@H](O)[C@H](C)O2)[C@H](C)[C@@H](O[C@@H]2O[C@H](C)C[C@H](N(C)C)[C@H]2O)[C@](C)(OC)C[C@@H](C)C(=O)[C@H](C)[C@@H](O)[C@]1(C)O |  |  |  | S-3M (susceptible) | MIC | >8 µg/mL |
| CSC(=S)NN=C(C)C |  |  | BACTEC | H37Rv | MIC | 0.78 µg/mL |
| CO[C@H]1/C=C/O[C@@]2(C)Oc3c(C)c(O)c4c(O)c(c(/C=N/N5CCN(C)CC5)c(O)c4c3C2=O)NC(=O)/C(C)=C\C=C\[C@H](C)[C@H](O)[C@@H](C)[C@@H](O)[C@@H](C)[C@H](OC(C)=O)[C@@H]1C | Rifampicin- and isoniazid-resistant |  | broth dilution | Clinical isolate 8600 | MIC | ≤10 µM |
| O=C1C(=O)N(c2ccccc2)C(=O)N1c1ccccc1 |  | 12.5 µg/mL | BACTEC | H37Rv | inhibition | 0% |
| CCOC(=O)Nc1cc(N(C)C/C(=N\O)c2ccc(OC)cc2)c([N+](=O)[O-])c(N)n1 |  |  |  | H37Rv | EC50 | >12.5 µg/mL |
| O=C1CC2COc3ccccc3C2=NN1c1ccccc1 |  |  | BACTEC | H37Rv | MIC bound | >12.5 µg/mL |
| CC[C@H]1OC(=O)[C@H](C)[C@@H](O[C@H]2C[C@@](C)(OC)[C@@H](O)[C@H](C)O2)[C@H](C)[C@@H](O[C@@H]2O[C@H](C)C[C@H](N(C)C)[C@H]2O)[C@](C)(OC)C[C@@H](C)C(=O)[C@H](C)[C@@H](O)[C@]1(C)O |  |  |  | 3897 | MIC | >4 µg/mL |
| CCCCNC(=S)SSSSC(=S)NCCCC |  |  | resazurin | H37Rv | MIC | 1.56 µg/mL |
| CCCCCCCCCN1C(=O)CC(SCCNC(=O)C(CC)CCCC)C1=O |  |  |  | H37Ra | MIC | ≤20 µg/mL |

For reference, 5 entries again:

O=C(N/N=C/c1cccc2ccccc12)c1ccc(O)cc1 ; tested at: 12.5 µg/mL ; method: BACTEC ; strain or isolate: H37Rv ; read-out: inhibition ; value: 6%
c1ccc(-c2cc3cc4c(cc3[nH]2)Oc2ccccc2O4)cc1 ; tested at: 12.5 µg/mL ; method: BACTEC ; strain or isolate: H37Rv ; read-out: inhibition ; value: -3%
CCOc1ccccc1NC(=O)OCCN(C)C ; strain or isolate: My 331/88 ; read-out: MIC ; value: 1000 µM
Cc1c(C(=O)C/C(=N\NC(=O)CC#N)C(N)=O)[n+](=O)c2ccccc2n1[O-] ; method: BACTEC ; strain or isolate: H37Rv ; read-out: MIC ; value: ≥12.5 µg/mL
Nc1ccc(C(=O)O)c(O)c1 ; strain or isolate: H37Rv ; read-out: Mean MIC ; value: 0.69 µg/mL